Tested on: carbapenem-resistant Gram-negative clinical isolates vs Caco-2 cells
Test: Lowest in vitro therapeutic index (lowest determined IC50/MIC)
Format: cell-based
Details: IC50 in Caco-2 cells/MIC
[1] = strain H P. aeruginosa CQ4924, + colistin 0.5 μg/mL

Row | Structure (SMILES) | Lowest in vitro TI (all test strains C-G, + colistin 0.25 μg/mL) | Lowest in vitro TI [1] | Lowest in vitro TI (strain D E. cloacae CQ1941, + colistin 0.25 μg/mL)
1 | CCCCCCCCCCCC[C@H]1O[C@H](C)C[C@H](O)[C@H]1O [Compound 5, 1-(4,6-dideoxy-α-D-xylo-hexopyranosyl)dodecane] | approximately 6.3 | ~6.2 | 
2 | CCCCCCCCCCCCO[C@H]1C[C@H](O)[C@@H](O)[C@H](C)O1 [Compound 3, dodecyl 2,6-dideoxy-α-L-arabino-hexopyranoside] |  | approximately 6.9 | approximately 13.7
